Patent US20050170334A1 (published 2005)

B1: C40G1 (antibody, V domains shown)
VH: QLQLQESGPGLVKPSETLSLTCTVSGGSISSSFYYCGWIRQPPGKGLEWIGSIYYRGSTYYNPSLKSRVTISVDTSKNQFSLKLSSVTAADTAVYYCARRVTMVRGVKGDYFDYWGQGTLVTVSS
VL: DIQMTQSPSSLSASVGDRVTITCRASQGISSWLAWYQQKPEKVPKSLIYAASSLQSGVPSRFSGSGSGTDFTLTISSLQPEDFATYYCQQYNYYPLTFGGGTKVEIKR
B2: C40G4 (antibody, V domains shown)
VH: B1 VH
VL: B1 VL

Molecular target: T1, M2 expressed on A/HK/8/68 infected MDCK cells (influenza A virus A/HK/8/68)
T1 construct: whole, on cells
Assay: cell-based ELISA, infected MDCK cells

Binder	EC50
B1	0.0971 mg/L
B2	0.841 mg/L
